One test relates to P. aeruginosa Br667. In kind it is cell-based, Pseudomonas aeruginosa. The note with it: 0.5 mM EDTA, no endolysin.
The next test has as its system P. aeruginosa PAO1p. The test is classed as cell-based, Pseudomonas aeruginosa. The note with it: no endolysin.
Test [1] concerns Salmonella typhimurium LT2. The test is classed as cell-based. To be noted: 0.5 mM EDTA, no endolysin.
For test [2], the system named is Burkholderia pseudomallei. The test is classed as cell-based. To be noted: 0.5 mM EDTA, no endolysin.
In test [3] the test system is P. aeruginosa PAO1p cells. Kind of test: Antibacterial activity, 1 hour incubation with 100 μg/ml protein, residual colony count. The note with it: exponentially growing cells, undialyzed protein 100 μg/ml, room temperature (Table 6).

Where two headings read alike, the source gives them in different places.

As to `O=C([O-])CN(CCN(CC(=O)[O-])CC(=O)O)CC(=O)O.[Na+].[Na+]` [EDTA, reference compound], the “antibacterial activity as the relative inactivation in logarithmic units (log10N0/Ni)” value was 0.223 +/− 0.038 logarithmic units in the test on P. aeruginosa Br667 (30 minutes (Table 10)); 0.003 +/− 0.051 logarithmic units in the test with P. aeruginosa Br667 (30 minutes (Table 12)); 0.031 +/− 0.023 logarithmic units with P. aeruginosa Br667 (30 minutes (Table 15)); 0.146 +/− 0.002 logarithmic units with P. aeruginosa PAO1p (0.5 mM EDTA, 30 minutes (Table 10)); 0.330 +/− 0.146 logarithmic units with P. aeruginosa PAO1p (0.5 mM EDTA, 30 minutes (Table 12)); 0.130 +/− 0.023 logarithmic units in the test on P. aeruginosa PAO1p (0.5 mM EDTA, 30 minutes (Table 15)). For the same molecule, the “antibacterial activity as the relative inactivation in logarithmic units (log10N0/Ni)” value in the test on P. aeruginosa PAO1p (0.05 mM EDTA-Na2, 30 minutes (Table 17)) is listed as 0.028 +/− 0.008 logarithmic units; in the test on P. aeruginosa PAO1p (0.5 mM EDTA-Na2, 30 minutes (Table 17)), 0.130 +/− 0.023 logarithmic units; in the test on P. aeruginosa PAO1p (10 mM EDTA-Na2, 30 minutes (Table 17)), 1.827 +/− 0.052 logarithmic units; in test [1] (30 minutes (Table 10)), 0.104 +/− 0.049 logarithmic units; in test [1] (30 minutes (Table 15)), 0.054 +/− 0.048 logarithmic units; in test [2] (30 minutes (Table 12)), 0.206 +/− 0.151 logarithmic units. Moreover, the “antibacterial activity as the relative inactivation in logarithmic units (log10N0/Ni)” value in test [2] (30 minutes (Table 15)) is listed as 0.220 +/− 0.081 logarithmic units.
As for “phiKZgp144: unmodified modular endolysin of Pseudomonas aeruginosa phage φKZ, SEQ ID NO: 1 [reference compound]”, the “antibacterial activity in logarithmic units (log10N0/Ni)” value in test [3] was found to be 0.00 ± 0.06 log.

B1: ELgp188: unmodified modular endolysin of Pseudomonas aeruginosa phage EL, SEQ ID NO: 2 (protein)
chain: MNFRTKNGYRDLQALVKELGLYTGQIDGVWGKGTSSSTETLLRGYAEVVGKNTGGIGLPTTSDASGYNVITALQRNLAFLGLYSLTVDGIWGNGTLSGLDKAFEVYKERYRTPTYDIAWSGKVSPAFTAKVKDWCGVHVPNHRAPHWLMACMAFETGQTFSPSIKNAAGSEAYGLIQFMSPAANDLNVPLSVIRSMDQLTQLDLVFKYFEMWMKRGKRYTQLEDFYLTIFHPASVGKKADEVLFLQGSKAYLQNKGFDVDKDGKITLGEISSTLYTTYYKGLLPENRHVISY
modifications: ELgp188
As to B1, the “antibacterial activity in logarithmic units (log10N0/Ni)” value in test [3] was 0.05 ± 0.06 log.

B2: (POLY)^2-gp188: fusion protein SEQ ID NO: 40: endolysin SEQ ID NO: 2 with peptide SEQ ID NO: 21 (protein)
chain: MGSKRKKRKKRKRSKRKKRKKRKNFRTKNGYRDLQALVKELGLYTGQIDGVWGKGTSSSTETLLRGYAEVVGKNTGGIGLPTTSDASGYNVITALQRNLAFLGLYSLTVDGIWGNGTLSGLDKAFEVYKERYRTPTYDIAWSGKVSPAFTAKVKDWCGVHVPNHRAPHWLMACMAFETGQTFSPSIKNAAGSEAYGLIQFMSPAANDLNVPLSVIRSMDQLTQLDLVFKYFEMWMKRGKRYTQLEDFYLTIFHPASVGKKADEVLFLQGSKAYLQNKGFDVDKDGKITLGEISSTLYTTYYKGLLPENRHVISY
modifications: (POLY)2-gp188
On to B2, for which the “antibacterial activity in logarithmic units (log10N0/Ni)” value in test [3] worked out at 2.0 ± 0.2 log.
